Results from patent US6803374B2, “Compounds useful for treating hepatitis C virus” (priority 2001, dated 2004).

Chains of the proteins cited; added tags and fusions are not shown. Residues count along the entry.
UniProt Q9WMX2, 2420-2992 limits assumed: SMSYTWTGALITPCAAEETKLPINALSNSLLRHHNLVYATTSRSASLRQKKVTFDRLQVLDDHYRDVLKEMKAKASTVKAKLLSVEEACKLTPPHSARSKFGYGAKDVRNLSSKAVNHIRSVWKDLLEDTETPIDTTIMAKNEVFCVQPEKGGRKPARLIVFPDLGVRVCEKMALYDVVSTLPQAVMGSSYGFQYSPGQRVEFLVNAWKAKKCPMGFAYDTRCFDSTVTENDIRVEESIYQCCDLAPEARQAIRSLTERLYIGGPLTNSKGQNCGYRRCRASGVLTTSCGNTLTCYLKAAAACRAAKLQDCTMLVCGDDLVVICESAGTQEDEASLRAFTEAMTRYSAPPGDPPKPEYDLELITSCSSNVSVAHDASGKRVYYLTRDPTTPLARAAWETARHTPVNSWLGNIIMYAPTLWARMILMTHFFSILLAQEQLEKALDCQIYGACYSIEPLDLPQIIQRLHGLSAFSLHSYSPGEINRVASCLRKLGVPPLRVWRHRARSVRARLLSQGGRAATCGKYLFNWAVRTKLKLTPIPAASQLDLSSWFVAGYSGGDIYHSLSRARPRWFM

Molecular target: HCV NS5B RdRp genotype 1b (Hepatitis C virus genotype 1b, UniProt Q9WMX2)
Assay: HCV NS5B RdRp enzyme assay
Type: biochemical
Conditions: HCV RdRp genotype 1b enzyme, C-terminal 18 aa truncated, average of single point IC50 values
Procedure: HCV NS5B RdRp cloning, expression and purification. The cDNA encoding the NS5B protein of HCV, genotype 1b, was cloned into the pET21a expression vector. The protein was expressed with an 18 amino acid C-terminal truncation to enhance the solubility. The E. coli competent cell line BL21(DE3) was used for expression of the protein. Cultures were grown at 37° C. for ˜4 hours until the cultures reached an optical density of 2.0 at 600 nm. The cultures were cooled to 20° C. and induced with 1 mM IPTG. Fresh ampicillin was added to a final concentration of 50 ug/ml and the cells were grown overnight at 20° C.
Cell pellets (3L) were lysed for purification to yield 15-24 mgs of purified NS5B. The lysis buffer consisted of 20 mM Tris-HCl, pH 7.4, 500 mM NaCl, 0.5% triton X-100, 1 mM DTT, 1 mM EDTA, 20% glycerol, 0.5 mg/ml lysozyme, 10 mM MgCl2, 15 ug/ml deoxyribonuclease I, and Complete TM protease inhibitor tablets (Roche). After addition of the lysis buffer, frozen cell pellets were resuspended using a tissue homogenizer. To reduce the viscosity of the sample, aliquots of the lysate were sonicated on ice using a microtip attached to a Branson sonicator. The sonicated lysate was centrifuged at 100,000×g for 1 hr at 4° C. and filtered through a 0.2 μm filter unit (Corning).
The protein was purified using three sequential chromatography steps: Heparin sepharose CL-6B, polyU sepharose 4B, and Hitrap SP sepharose (Pharmacia). The chromatography buffers were identical to the lysis buffer but contained no lysozyme, deoxyribonuclease I, MgCl2 or protease inhibitor and the NaCl concentration of the buffer was adjusted according to the requirements for charging the protein onto the column. Each column was eluted with a NaCl gradient which varied in length from 5-50 column volumes depending on the column type. After the final chromatography step, the resulting purity of the enzyme is >90% based on SDS-PAGE analysis. The enzyme was aliquoted and stored at −80° C.
HCV NS5B RdRp enzyme assay. HCV RdRp genotype 1b assays were run in assay buffer composed of 20 mM Tris-HCl, pH 7.5, 2.5 mM KCl, 5 mM MgCl2, 1 mM DTT, 1.6 U RNAse inhibitor (Promega N2515), in 96 well plates (Falcon 3918). All compounds were serially diluted in DMSO and diluted further in assay buffer such that the final concentration of DMSO in the assay was 2%. Compounds were serially diluted (3-fold each time) for a 7 point inhibition analysis. HCV RdRp genotype 1b enzyme was used at a final concentration of 28 nM. A polyA template was used at 28 nM, and the oligo-dT12-18 primer was used at 840 nM final concentration. Preannealed primer and template were obtained commercially (Amersham 27-787802). ^3H-UTP was used at 0.125 μCi (1 μM total UTP). Reaction was initiated by the addition of enzyme. Reactions were incubated at 30° C. for 45 min, and stopped by adding 30 ul of 20% ice cold TCA. Plates were chilled for 30 minutes and harvested onto Unifilter-96, GF/B plates (Packard, 6005177) using a Packard FilterMate Cell Harvester. The harvest plates were prewashed 3 times, 200 ul/well, with 100 mM NaPPi. Harvested filters were washed 30 times, 200 ul/well, with distilled water followed by ethanol. Filter plates were dried, and 30 ul/well microscint-20 was added. Plates were read on a Packard Top Count NXT.
The IC50 values for compounds were determined using […] different [I], combined with 7 nM enzyme, 800 ng of the template-primer polyC/oligoG12 (1:5 molar ratio), and 0.7 uM of ^3H GTP containing 1 uCi. The observed fractional activity (fa=vi/vo) was used in the equation IC50=[I]/(1/fa-1) to determine a single point IC50 value. Typically, the single point IC50 values derived from [I] that produced fractional activities in the range of 0.1 to 0.8 relative to the uninhibited control were averaged to calculate the IC50 value for each compound.

COc1ccc(-c2ccc(C(=O)N3CCC(O)CC3)cc2COc2ccc(-c3nc4cc(-c5nnn[nH]5)ccc4n3C3CCCCC3)cc2)cc1OC
IC50: 300 nM

O=C(NC(Cc1cc2ccccc2[nH]1)C(=O)O)c1ccc(-c2ccsc2)c(COc2ccc(-c3nc4cc(-c5nnn[nH]5)ccc4n3C3CCCCC3)cc2)c1 (centres unmarked)
IC50: 580 nM

NC(=O)c1ccc(-c2ccc3[nH]cc(C(=O)C(F)(F)F)c3c2)c(COc2ccc(-c3nc4cc(-c5nnn[nH]5)ccc4n3C3CCCCC3)cc2)c1
IC50: 330 nM

Cn1ccc2cc(-c3ccc(C(=O)O)cc3COc3ccc(-c4nc5cc(-c6nnn[nH]6)ccc5n4C4CCCCC4)cc3)ccc21
IC50: 90 nM

O=C(O)c1ccc(-c2ccc(C(=O)O)cc2COc2ccc(-c3nc4cc(-c5nnn[nH]5)ccc4n3C3CCCCC3)cc2)cc1
IC50: 10 nM

COc1ccc(-c2ccc(C(=O)NC(Cc3cc4ccccc4[nH]3)C(=O)OC(C)(C)C)cc2COc2ccc(-c3nc4cc(-c5nnn[nH]5)ccc4n3C3CCCCC3)cc2)cc1OC (centres unmarked)
IC50: 2200 nM

O=C(O)c1ccc(-c2cncnc2)c(COc2ccc(-c3nc4cc(-c5nnn[nH]5)ccc4n3C3CCCCC3)cc2)c1 [Example 4, 3-[[4-[1-Cyclohexyl-5-(1H-tetrazol-5-yl)-1H-benzimidazol-2-yl]phenoxy]methyl]-4-(5-pyrimidinyl)benzoic acid]
IC50 (tested form: TFA): 1040 nM

O=C(c1ccc(-c2ccc(F)c(Cl)c2)c(COc2ccc(-c3nc4cc(-c5nnn[nH]5)ccc4n3C3CCCCC3)cc2)c1)N1CCC(O)CC1
IC50: 940 nM

CC(C)(C)OC(=O)n1cccc1-c1ccc(C(=O)O)cc1COc1ccc(-c2nc3cc(-c4nnn[nH]4)ccc3n2C2CCCCC2)cc1
IC50: 460 nM

CC(C)(C)OC(=O)C(Cc1cc2ccccc2[nH]1)NC(=O)c1ccc(-c2cccc(O)c2)c(COc2ccc(-c3nc4cc(-c5nnn[nH]5)ccc4n3C3CCCCC3)cc2)c1 (centres unmarked)
IC50: 1300 nM

COc1ncc(-c2ccc(C(=O)O)cc2COc2ccc(-c3nc4cc(-c5nnn[nH]5)ccc4n3C3CCCCC3)cc2)c(OC)n1
IC50: 1280 nM

O=C(NC(Cc1cc2ccccc2[nH]1)C(=O)O)c1ccc(-c2ccc(F)c(Cl)c2)c(COc2ccc(-c3nc4cc(-c5nnn[nH]5)ccc4n3C3CCCCC3)cc2)c1 (centres unmarked)
IC50: 380 nM

COc1ccc(-c2ccc(C(=O)N3CCN(C)CC3)cc2COc2ccc(-c3nc4cc(-c5nnn[nH]5)ccc4n3C3CCCCC3)cc2)cc1OC
IC50: 430 nM

CS(=O)(=O)c1ccc(-c2ccc(C(=O)O)cc2COc2ccc(-c3nc4cc(-c5nnn[nH]5)ccc4n3C3CCCCC3)cc2)cc1
IC50: 80 nM

O=C(NC(Cc1cc2ccccc2[nH]1)C(=O)O)c1ccc(-c2cccc(O)c2)c(COc2ccc(-c3nc4cc(-c5nnn[nH]5)ccc4n3C3CCCCC3)cc2)c1 (centres unmarked)
IC50: 680 nM

COc1ccc(-c2ccc(C(=O)NC(C)C(=O)O)cc2COc2ccc(-c3nc4cc(-c5nnn[nH]5)ccc4n3C3CCCCC3)cc2)cc1OC (centres unmarked)
IC50: 280 nM

CN1CCN(C(=O)c2ccc(-c3ccc(F)c(Cl)c3)c(COc3ccc(-c4nc5cc(-c6nnn[nH]6)ccc5n4C4CCCCC4)cc3)c2)CC1
IC50: 350 nM

CC(NC(=O)c1ccc(-c2ccsc2)c(COc2ccc(-c3nc4cc(-c5nnn[nH]5)ccc4n3C3CCCCC3)cc2)c1)C(=O)OC(C)(C)C (centres unmarked)
IC50: 2600 nM

CC(C)(C)OC(=O)C(Cc1cc2ccccc2[nH]1)NC(=O)c1ccc(-c2ccsc2)c(COc2ccc(-c3nc4cc(-c5nnn[nH]5)ccc4n3C3CCCCC3)cc2)c1 (centres unmarked)
IC50: 1200 nM

O=C(O)c1ccc(-c2cc3ccccc3[nH]2)c(COc2ccc(-c3nc4cc(-c5nnn[nH]5)ccc4n3C3CCCCC3)cc2)c1
IC50: 120 nM
